Measured values taken from article PMC12102759 (Protein Science : A Publication of the Protein Society, 2025).

Biological target: NSP3 ADRP (Severe acute respiratory syndrome coronavirus 2, UniProt P0DTC1)
Experiment: biochemical
Type: binding, SARS‐CoV‐2

## CC[C@H](C)[C@H](NC(=O)CNC(=O)[C@H](CC(C)C)NC(=O)[C@H](CC(C)C)NC(=O)[C@H](CCC(=O)O)NC(=O)[C@H](CO)NC(=O)[C@H](CC(C)C)NC(=O)[C@@H]1CCCN1C(=O)[C@H](Cc1c[nH]cn1)NC(=O)[C@H](CC(C)C)NC(=O)[C@H](Cc1ccc(O)cc1)NC(=O)[C@@H](NC(=O)[C@H](CO)NC(C)=O)[C@@H](C)O)C(=O)N1CCC[C@H]1C(=O)N[C@@H](CC(C)C)C(=O)N[C@@H](CC(=O)O)C(N)=O [MBOAT1 wt]
  Kd: 49 µM
